PMC4191344, “Identification and characterization of Aβ peptide interactors in Alzheimer’s disease by structural approaches” (Frontiers in Aging Neuroscience, 2014)

Molecular target: Amyloid-beta 1-40 peptide
Assay: SDS-PAGE and Western blot for SDS-resistant multimers; Aβ aged for 72 h in the same buffer; tris-tricine SDS-PAGE

Work on Amyloid-beta 1-40 peptide yielded a stoichiometry N of 2.
